Source: US20150065466A1, “NOVEL DXR INHIBITORS FOR ANTIMICROBIAL THERAPY” (priority 2012, published 2015)

Protein sequences, listed by entry. Tags and fused reporters are not part of them. Residues count along the entry.
UniProt S8ESX0, 187-632 limits assumed: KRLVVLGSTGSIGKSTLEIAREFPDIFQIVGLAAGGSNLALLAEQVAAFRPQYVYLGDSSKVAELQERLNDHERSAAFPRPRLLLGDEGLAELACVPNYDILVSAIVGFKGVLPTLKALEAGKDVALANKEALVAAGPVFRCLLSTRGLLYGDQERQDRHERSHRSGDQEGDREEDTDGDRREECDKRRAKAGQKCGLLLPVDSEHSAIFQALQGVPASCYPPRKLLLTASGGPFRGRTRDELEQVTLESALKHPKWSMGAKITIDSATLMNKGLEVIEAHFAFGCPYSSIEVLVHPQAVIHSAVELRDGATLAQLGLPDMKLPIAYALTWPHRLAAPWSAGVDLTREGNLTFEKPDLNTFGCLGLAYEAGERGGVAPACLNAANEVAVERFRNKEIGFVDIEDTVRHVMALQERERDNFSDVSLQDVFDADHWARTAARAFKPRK
UniProt P45568, whole entry: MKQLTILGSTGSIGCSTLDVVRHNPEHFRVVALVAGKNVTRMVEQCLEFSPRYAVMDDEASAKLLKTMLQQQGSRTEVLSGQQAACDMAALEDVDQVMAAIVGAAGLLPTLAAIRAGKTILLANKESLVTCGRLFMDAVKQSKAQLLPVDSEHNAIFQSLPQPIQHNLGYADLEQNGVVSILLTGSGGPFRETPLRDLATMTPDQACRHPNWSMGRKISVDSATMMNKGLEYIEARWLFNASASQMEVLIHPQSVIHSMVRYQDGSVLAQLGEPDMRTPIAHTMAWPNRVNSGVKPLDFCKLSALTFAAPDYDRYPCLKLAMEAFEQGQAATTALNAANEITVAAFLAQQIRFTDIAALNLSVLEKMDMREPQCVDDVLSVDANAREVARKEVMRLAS

Experiments:
[1] = biological target: TgDXR (Toxoplasma gondii, UniProt S8ESX0); experiment: recombinant TgDXR enzyme inhibition
[2] = biological target: EcDXR (Escherichia coli, UniProt P45568); conditions: read-out: Ki EcDXR; cited from earlier work

O=P(O)(O)Cc1ccc(-c2ccccc2)cn1
Ki against TgDXR, in words [1]: low μM range

O=c1ccc(-c2ccccc2)cn1O
Ki [2]: 700 nM
